From the supplement of paper PMC12637763
Residue numbers refer to the chain shown, from its start. Some of the results follow. Env chains of viruses from a treatment-interruption trial, translated from the printed DNA. IC50 / IC80 of two broadly neutralizing antibodies; lower = more sensitive virus; >50 µg/ml means not reached and <0.001 µg/ml is below the lowest dose. No active / inactive call.

B1: HIV-1 Env, reservoir clone (protein)
chain: MRVRGIRKNYQRLWGWGITLLGMLMICSATEKMWVTVYYGVPVWKEATTTLFCASDAKAYDKEVHNVWATHACVPTDPSPQEVGLENVTETFNMWKNNMVDQMHEDIMSLWDQSLKPCVKLTPLCVTLNCTDATKVNASEINNSSLGEMKNCSFNITTSIRDKIQRTYAYFYKLDLVPIDTNNTSYRLISCNTSVITQACPKVSFEPIPIHYCAPAGFAILKCRDKKFNGKGECRNVSTVQCTHGIRPVVSTQLLLNGSLAEEEVVIRSNNFTDNAKTIIVQLNQSVQINCTRPNNNRRKSINIGPGRAFYAAGDIIGDIRQAHCNISRTKWNNTLRQIVEKLKEQFPNKTIVFNQSSGGDPEIVMHSFNCGGEFFFCDTTKLFNSTWSNNGTWNSTNSTVGNDTITLPCRMKQIINMWQEVGKAMYAPPISGQIRCSSNITGLLLTRDGGKVNSTNETFRPGGGDMRDNWRSELYKYKVVKIKPLGIAPTKAKRRVVQREKRAVGIGAVFLGFLGAAGSTMGAASVTLTVQARLLLSGIVQQQNNLLRAIEAQQHLLQLTVWGIKQLQARVLAVERYLQDQQLLGIWGCSGKLICTTAVPWNTSWSNKTYKGIWENMTWMQWEKEIDNYTGLIYNLIEESQNQQEKNEQELLELDKWASLWNWFSITQWLWYIKLFVMIVGGLIGLRIVMTILSIVNRVRKGYSPLSFQTHLPTPRGPDRPEGTEEEGGERERDRSERLVNGFLALIWDDLRSLCLFSYHRLRDLILVVTRIVELLGRRGREVLKYWWNLLQYWGQELRNSTVSLLDAIAIAVAGGTDRIIEGVQRVCRAIRHIPRRIRQGAERALV
B2: HIV-1 Env, reservoir clone (protein)
chain: MRAKGIRKNCQDLLKGGILLLGILMICSAAGNLWVTVYYGVPVWKDATTTLFCASDAKGYSKEAHNVWATHACVPTDPDPREVVMGNVTENFNMWKNDMVDQMHEDIISLWDQSLKPCVKLTPLCVTLNCTNLNITNLNNTNSNTSNPNNNTSIENGSEEMKNCSFNVTTIKGKYQQEYAILYKLDLVPIDKNDNTSYMLINCNTSVITQACPKISFEPIPIHYCAPAGFAILKCNNKTFNGTGPCTNVSSVQCTHGIRPVVSTQLLLNGSLAEEEVVIRSENFTDNAKTIIVQLKDPIQINCTRPSNNTRKSIHIGPGRAFYATGQIIGDIRQAYCNISKEQWNEALNQTVRKLREQFGNKTIFFNQSSGGDPEIVMHTFNCGGEFFYCNTTQLFNSTWYDTTNSTDSNNGTIKLPCRIKQVINRWQEVGKAMYAPPIRGSIRCSSNITGLLLVRDGGNNNSSNSSETFRPGGGNMKDNWRSELYKYKVVKIEPLGVAPTKAKRRVVQRERRAVTLGAMFLGFLGTAGSTMGAASLTLTVQARQLLSGIVQQQSNLLRAIEVHQHMLQLTVWGIKQLQARVLAVERYLKDQQLLGIWGCSGKLICTTTVPWNASWSKKNLSEIWDNMTWIEWEREIQNYTEEIYSLIEKSQNQQAKNEQELLELDKWANLWNWFDITNWLWYIKIFIMIVGGLIGLRIVFTVLSIVNRVRQGYSPLSFQTRLPTQRGPDRPEGTGEEGGERDRDTSRPLVDGFLAIIWVDLRSLFLFSYHRLRDLLLIVTRIVETLGRRGWELLKYWWNLLQYWSQELKNSAISLLNATAIAVAEGTDRVIELIQRAGRAIIHIPRRIRQGLESALL
B3: HIV-1 Env, reservoir clone (protein)
chain: MKVRGMKRNYQHLWGWGTMLLFWMIIMCKAAGNLWVTVYYGVPVWRDAETTLFCASDAKAYDKEVHNVWATHACVPTDPNPQEVRLENVTEHFNMWENNMVEQMQTDIISLWDQSLKPCVKLTPLCVTLECTEPKLNSSTSNNSLSSTSNNSQYEEMKNCSFNMTTELRDKQKKVYSLFYKLDIVETDNNSSRYRLINCNTSTLTQACPKVTFEPIPIYYCAPAGFAILKCNDPQFNGTGPCTNVSTVQCTHGIKPVVSTQLLLNGSLAKEQVMIRSKNITDNSKTIIVQLKKPVNITCIRPGNNTRTSIRIGPGQAFYATGEITGDIRKAHCNVSRAEWNRTLQEISTQLQGYFNNKTIIFKNSSGGDLEVTTHSFNCGGEFFYCNTTKLFNSTWYGNETVINGTEASENITLQCRIKQIINMWQRVGQAMYAPPIRGEIRCESNITGLLLTRDGGGGNSSNNETFRPTGGDMRDNWRSELYKYKVVQVEPIGIAPTPAKRRVVEREKRAVGLGAAFLGFLGAAGSTMGAASLTLTVQARQLLSGIVQQQSNLLRAIEAQQHLLKLTVWGIKQLQARVLAVERYLRDQQLLGIWGCSGKLICTTAVPWNSSWSNKSYKDIWDNMTWMQWDKEVLNYTSIIYSLLEESQNQQEKNEQDLLALDKWASLWSWFDISKWLWYIKIFIMIVGGLIGLRIVFTVLSIINRVRQGYSPLSLQTLTPHPEEPDRPGRINEEGGEQDKGRSIRLVNGFLALAWDDLRSLCLFSYHRLRDFISIAARTVELLGRSSLKGLRLGWEGLKYLGNLLGYWSRELKNSAINLIDTIAIAVAGWTDRVIEIVQGSCRAIRNIPRRIRQGAEKALQ
B4: HIV-1 Env, reservoir clone (protein)
chain: MKAKETMKNYQHFWRWGIMLLGMLMICSAASQLWVTVYYGVPVWKEATTTLFCASDAKAYDTEVHNVWATHACVPTDPNPQEVVLGNVTEDFNMWKNNMVEQMHEDIISLWDQSLKPCVKITPLCVTLNCTEYSNATSTEWGQMEKGEIKNCSFNVTTNIKNKMQKEYALFYKLDVVPIDNSTNYRLIKCNTSAITQACPKVSFQPIPIHYCAPAGFAILKCNNKTFNGLGPCTNVSTVQCTHGIRPVVSTQLLLNGSLAEEEIVIRSENFSDNAKNIIVHLNTSIEIDCTRPNNNTRKSITIGPGRAFYATGSVIGNIRQAHCNISGEKWNKALKQIAIKLREQFGHNKTIIFNQSSGGDPEIVTHSFNCGGEFFYCNSTKLFNSTWHSNDTRNNTESNETIIIPCKIKQIINLWQEVGKAIYAPPISGPIRCSSNITGLLLTRDGGNISQTNETFRPGGGDMRDNWRSELYKYKVVKIEPLGVAPTKAKRRVVQRERRAVGTFGALFLGFLGAAGSTMGAASITLTVQARQLLSGIVQQQNNLLKAIEAQQHLLQLTVWGIKQLQARVLAVERYLKDQQLLGLWGCSGKLICTTTVPWNASWSNKSLEQIWENMTWMQWEKEIDNYTGIIYSLISESQLQQEKNEKELLELDKWASLWTWFDITNWLWYIKIFIMIVGGLIGLRIVFAVLSIVNKVRKGYSPLSFQTRLPTPRGPDRPEGIEGEGGERGRDTSIRLVDGFLALIWDDLRNLCLFSYHHLRDLILIVVRTVELLGRRGWELLKYWWNLLKYWSQELKKSAVSLFNAAAIAVAEGTDRVIEVVQRAGRGILHVPRRIRQGLERALQ
B5: HIV-1 Env, reservoir clone (protein)
chain: MKAKETMKNYQHLWRWGIMLLGMLMICSAASQLWVTVYYGVPVWKEATTTLFCASDAKAYDTEVHNVWATHACVPTDPNPQEVVLGNVTEDFNMWKNNMVEQMHEDIISLWDQSLKPCVKITPLCVTLNCTEYSNATSTIGGQTEKGEIKNCSFNVTTNIKNKMQKEYALFYNLDVVPIDNSTNYRLIKCNTSAITQACPKVSFQPIPIHYCAPAGFAILKCNNKTFNGLGPCTNVSTVQCTHGIRPVVSTQLLLNGSLAEEEIVIRSENFSDNAKNIIVHLNASIEIDCTRPNNNTRKSITIGPGRAFYATGSVIGNIRQAHCNISGEKWNKALKQIAIKLREQFGHNKTIIFNQSSGGDPEIVTHSFNCGGEFFYCNSTKLFNSTWHSNDTRNNTTESNETIIIPCKIKQIINLWQEVGKAIYAPPISGPIRCSSNITGLLLTRDGGNISQTNETFRPGGGDMRDNWRSELYKYKVVKIEPLGVAPTKAKRRVVQRERRAVGTFGALFLGFLGTAGSTMGAASITLTVQARQLLSGIVQQQNNLLKAIEAQQHLLQLTVWGIKQLQARVLAVERYLKDQQLLGLWGCSGKLICTTTVPWNASWSNKSLEQIWENMTWMQWEKEIDNYTGIIYSLISESQLQQEKNEKELLELDKWASLWTWFDITNWLWYIKIFIMIVGGLIGLRIVFAVLSIVNKVRKGYSPLSFQTRLPTPRGPDRPEGIEGEGGERGRDTSIRLVDGFLALIWDDLRNLCLFSYHHLRDLILIVVRTVELLGRRGWELLKYWWNLLKYWSQELKKSAVSLFNAAAIAVAEGTDRVIEVVQRAGRGILHVPRRIRQGLERALQ
B6: HIV-1 Env, reservoir clone (protein)
chain: B4 chain with M7R, E140I, W141G, M144T, K173N, T284A, D289N, T291A, F369L, A515T

How the values were obtained:
antibody 10-1074 [1] = experiment: neutralization IC50; higher = virus less sensitive to the antibody
Procedure: (§1)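 Pseudovirus bearing the Env chain mixed with antibody, from 50 µg/ml in fivefold dilutions, on TZM-bl reporter cells, in duplicate.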

antibody 3BNC117 [2] = experiment: as above
Procedure: as §1

antibody 10-1074 [3] = experiment: neutralization IC80; higher = virus less sensitive to the antibody
Procedure: as §1

antibody 3BNC117 [4] = experiment: as above
Procedure: as §1

Binder	neutralization IC50 (antibody 10-1074 [1]) [µg/mL]	neutralization IC50 (antibody 3BNC117 [2]) [µg/mL]	neutralization IC80 (antibody 10-1074 [3]) [µg/mL]	neutralization IC80 (antibody 3BNC117 [4]) [µg/mL]
B1	0.001	0.01	0.005	0.017
B2	10	0.204	> 50	0.57
B3	0.078	0.262	1.3	0.615
B4	< 0.001	0.036	0.004	0.226
B5	< 0.001	0.048	< 0.001	0.175
B6	< 0.001	0.034	< 0.001	0.121
